The supplement of paper PMC9931576
Human monoclonal antibodies against the spike receptor-binding domain (heavy:light variable regions). IC50 against pseudoviruses bearing the spike of naturally observed variants; lower = stronger; >10 µg/ml means not reached at the top dose. No active / inactive call. The stated detection limit is 0.0005 µg/ml; values near or below 0.001 µg/ml lie at the floor of the assay.

B1: BD55-988 (protein)
chain 1: QVQLQQWGAGLLKPSDTLSRTCAVYGGSFSNYYWSWIRQFPGKGLEWIAEISDGGSTNYNPSLKSRVTISVDPSKKQFSLTLRSVTAADTAVYFCARGRRHYFDRPGFNHYYFYGLDVWAQGTTVIVSS
chain 2: SSELTQDPAVSVALGQTVTITCQGDSLRSHDACWYQQKSGQAPVLLIYDKDSRPSGIPDRFSGSGSGNTASLTITGAQAEDEADYYCNSRDSPGENLLFGGGTKVTVL
B2: BD-744 (protein)
chain 1: EVQLVESGGGLVQPGRSLRLSCAASGFTFDDYAMHWVRQAPGKGLEWVSGASWNSGTIGYADSVKGRFIIIRDNAKNSLYLQMNSLRSEDTASYYCAKDFSRDGDAFDIWGQGTMVTVSS
chain 2: SYVLPQPPSVSVAPGKTARITCGGNNIEHKSVHWYQQKPRQAPVVVMYYDSDRPSGIPERFSGSNSGNTATLIISRVEAGDEAEYYCQVWDRSSDQPVFGGGTKLTVL
B3: BD-756 (protein)
chain 1: QVQLVQSGAEVRKPGSSVKVSCKTSGGTFSSNSISWVRQAPGQGLEWMGNFIPILGIANYAQNFQGRVTITADKSTSTAYMELSSLRSEDTAVFYCARVSYDSSGWGAAFDIWGQGTMVTVSS
chain 2: QSVLTQPPSVSGAPGQRVTISCTGSNSNIGAGYDVHWYQQLPGTVPKLLIYGNNNRPSGVPDRFSGSKSGTSASLAITGLQAEDEADYYCQSYDSGLTGELFGGGTKLTVL
B4: BD-758 (protein)
chain 1: QVQLVESGGGVVQPGRSLRLSCAASGFTFSSYGMHWVRQAPGKGLEWVAVIWFDGIDKYYTDSVKGRFSISRDNSKNTMYLQMNSLRVGDTAVYYCAKDMIRGETHFNYYMDVWGKGTTVTVSS
chain 2: QSALTQPRSVSGSPGQSVTISCTGTSSDIGDYDYVSWYQQHPGKAPKFMIYDVNKRPSGVPDRFSGSKSGNTASLTISGLQAEDEADYYCCSYAGSFVVFGGGTKLTIL
B5: BD-804 (protein)
chain 1: EVQLVESGGGLVKPGGSLRLSCAASGFTFSNYDMNWVRQAPGKGLEWVSSISSSSTYTHYADSVKGRFTISRDNAKNSLYLQMNSLRAEDTAVYYCARDRAYRLGELSSLWGDDAFDIWGQGTMVTVSS
chain 2: AVWMTQSPSLLSASTGDRVTVSCRMSQDISSYLAWYQQKPGKAPELLIYAAFTLQSGVPSRFSGSGSGTEFTLTISSLQSEDFATYYCQQYYSFPHTFGQGTKLE
B6: BD-917 (protein)
chain 1: EVQLVESGGGLVQPGRSLRLSCAASGFTFDDYAMHWVRQVPGKGLEWVSGISWSGSSLQYADSVKGRFTISRDNAKNSLFLQMNSLRAEDTAFYYCAKGVLGEWEFLFDNWGQGTLVTVSS
chain 2: QSVLTQPPSASGTPGQRVTISCSGSSSNIGSYSVNWYQQLPGTAPKLLIYTHHQRPSGVPDRFSGSKSGTSASLTISGLQSEDEADYYCAGWDDSMSALVFGGGTKLTVL
B7: BD-923 (protein)
chain 1: EVLLVESGGGLVQPGRSLRLSCTASGFTFEDYAMHWVRQAPGKGLEWVSGMSWNSGTIGYADSVRGRFIISRDNAKNSLYLQMNSLRAEDTALYYCGKDRGFGESLYYVMDVWGQGATVTVSS
chain 2: QSALTQPASVSGSPGQSITISCTGTSSDVGVYNYVSWYQQHPGKAPKLMIYNVSDRPSGVSNRFSGSKSGNTASLTISGLQAEDEADYYCSSYTSSSIVIFGGGTKLTVL
B8: BD55-319 (protein)
chain 1: QVQLQESGPGLVKPSETLSLTCTVSGGSISSYYWSWIRQTPGKGLEWIGYIYYSGSTKYNPSLKSRVTISVDTSKKQFSLKLSSVTAADTAVYYCARSAVPVAGVDYWGQGTLVTVSS
chain 2: NFMLTQPHSVSESPGKTVTISCTGSSGSIASNYVQWYQQRPGSAPTTVIYEDNQRPSGVPDRFSGSIDSSSNSASLTISGLKTEDEADYYCQSYDSSFWVFGGGTKVTVL
B9: BD-670 (protein)
chain 1: QVQLVESGGGVVQPGRSLRLSCAASGFTFTDYILNWVRQAPGKGPEWLAVISYDGNNYYYTDSVKGRFTISRDTSKNTLYLQMNNLRPEDTAIYYCVRCPPPRSWFYFDYWGQGTLVTVSS
chain 2: DIQMTQSPSTLSASVGDRVTITCRASQNVVSWLAWYQQKPGKAPKVLIYEASSLETGVPSRFSGSGSGTEFTLTISSLQPDDIATYYCQQYNSYSTFGQGTKVEVK
B10: BD-694 (protein)
chain 1: EVQLVESGGGLVKPGGSLRLSCAASGFTFSLAYMSWVRQAPGKGLEWVGRIKSKTEGGTIDYAAPVKGRFTISRDDSRNTLYLQMNSLKTEDTAVYYCTTSIHAREPRPPNAFDIWGQGTMVTVSS
chain 2: QSVLTQPPSVSEAPRQRVTISCSGSSSNIGNNAVNWYQQLPGKAPKLLIYYDDLLPSGVSDRFSGSKSGTSASLAISGLQSEDEADYYCAAWDDSLNGYVFGTGTKVTVL
B11: BD-695 (protein)
chain 1: EVQLVESGGGLVQPGKSLRLSCAASGFTFDDYAMHWVRQAPGKGLEWISTINWDHGSVDYADSVRGRFTISRDNAKKSLYLQMSSLRAEDTALYYCTKDMGWGGVVTGLGGQFEYWGQGTLVTVSS
chain 2: DIQMTQSPSSLSASVGDRVTITCRASQTISTYLNWYQQKPGKAPKLLIYNAISLQSGVPSRFSGSGSGTDFTLTISSLQPEDFATYYCQQSYSTPRETFGQGTKVEIK
B12: BD55-81 (protein)
chain 1: EVQLVQSGAEVKKPGESLNISCKGSGYTFTTYWIGWVRQMPGKGLEWMGIIYPGDSNTRYSPSFQGQVTISADKSISTAYLQWSSLKASDTAMYYCARHRIRFLPNDGFDVWGQGTMVTVSS
chain 2: QSALTQPASVSGSPGQSITISCTGASIGVGGYKFVSWYQQHPGKAPKLMIYDVNNRPSGVSNRFSGSKSGSTASLTISGLQAEDEADYYCSSYTSTTKHFGGGTKLTVL
B13: BD55-818 (protein)
chain 1: QVQLVQSGAEVKKPGSSVKVSCKASGGTFSSYAISWVRQAPGQGLEWMGRIIPMLGIADYAQKFQGRVTITADKSTRAYMELSSLRSEDTAVYYCARVGNDYGANSEWFDPWGQGTLVTVSS
chain 2: QSLLTQPPSVSGAPGQRVTISCTGSSSNIGAGYDVHWYQQLPGIAPKLLIYGNSNRPSGVPDRFSGSKSGTSASLAITGLQAEDEADYYCQSYDSSLSGVVFGGGTKLTVL

Biological target: SARS-CoV-2 Omicron BA.1 spike pseudovirus
Assay: pseudovirus neutralization IC50; higher = weaker neutralization
Description: (§1)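 Single-round VSV luciferase pseudovirus mixed with antibody dilutions for 1 h and put on Huh-7 cells for about a day; IC50 from the dose curve.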

Row | Binder | pseudovirus neutralization IC50 [µg/mL]
1 | B1 | > 10
2 | B2 | 0.151
3 | B3 | 0.168
4 | B4 | > 10
5 | B5 | 0.151
6 | B6 | 2.83
7 | B7 | 1.22
8 | B8 | > 10
9 | B9 | > 10
10 | B10 | > 10
11 | B11 | > 10
12 | B12 | > 10
13 | B13 | > 10

Biological target: SARS-CoV-2 Omicron BA.2 spike pseudovirus
Assay: as above
Description: as §1

Row | Binder | pseudovirus neutralization IC50 [µg/mL]
14 | B1 | > 10
15 | B2 | 0.138
16 | B3 | 0.11
17 | B4 | > 10
18 | B5 | 0.161
19 | B6 | 2.83
20 | B7 | 0.753
21 | B8 | > 10
22 | B9 | > 10
23 | B10 | > 10
24 | B11 | > 10
25 | B12 | > 10
26 | B13 | > 10

Biological target: SARS-CoV-2 Omicron BA.2.75 spike pseudovirus
Assay: as above
Description: as §1

Row | Binder | pseudovirus neutralization IC50 [µg/mL]
27 | B1 | > 10
28 | B2 | 0.126
29 | B3 | 0.192
30 | B4 | > 10
31 | B5 | 0.264
32 | B6 | 2.81
33 | B7 | 1.01
34 | B8 | > 10
35 | B9 | > 10
36 | B10 | > 10
37 | B11 | > 10
38 | B12 | > 10
39 | B13 | > 10

Biological target: SARS-CoV-2 Omicron BA.5 spike pseudovirus
Assay: as above
Description: as §1

Row | Binder | pseudovirus neutralization IC50 [µg/mL]
40 | B1 | > 10
41 | B2 | 0.899
42 | B3 | > 10
43 | B4 | > 10
44 | B5 | 0.354
45 | B6 | 3.91
46 | B7 | > 10
47 | B8 | > 10
48 | B9 | > 10
49 | B10 | > 10
50 | B11 | > 10
51 | B12 | > 10
52 | B13 | > 10

Biological target: SARS-CoV-2 Omicron BQ.1.1 spike pseudovirus
Assay: as above
Description: as §1

Row | Binder | pseudovirus neutralization IC50 [µg/mL]
53 | B1 | > 10
54 | B2 | > 10
55 | B3 | > 10
56 | B4 | > 10
57 | B5 | > 10
58 | B6 | 3.34
59 | B7 | > 10
60 | B8 | > 10
61 | B9 | > 10
62 | B10 | > 10
63 | B11 | > 10
64 | B12 | > 10
65 | B13 | > 10

Biological target: SARS-CoV-2 Omicron XBB spike pseudovirus
Assay: as above
Description: as §1

Row | Binder | pseudovirus neutralization IC50 [µg/mL]
66 | B1 | > 10
67 | B2 | 5.18
68 | B3 | > 10
69 | B4 | > 10
70 | B5 | > 10
71 | B6 | 5.4
72 | B8 | > 10
73 | B9 | > 10
74 | B10 | > 10
75 | B11 | > 10
76 | B12 | > 10
77 | B13 | > 10

Biological target: SARS-CoV-2 early D614G spike pseudovirus
Assay: as above
Description: as §1

Row | Binder | pseudovirus neutralization IC50 [µg/mL]
78 | B1 | > 10
79 | B2 | 0.0523
80 | B3 | 0.062
81 | B4 | 0.926
82 | B5 | 0.135
83 | B6 | 1.05
84 | B7 | 0.426
85 | B8 | > 10
86 | B9 | 0.493
87 | B10 | 0.394
88 | B11 | > 10
89 | B12 | > 10
90 | B13 | > 10
